Anti-infective test results gathered from many reports (values: NIAID ChemDB through PubChem).

Shared fields: whole-cell or culture tests; agent: HIV-1; measure: EC50

Blank or dashed fields: not listed here.

compound	cells	method	strain	setting	mutations	value
O=S(=O)(O)c1cc(NS(=O)(=O)c2ccc(-c3ccc(S(=O)(=O)Nc4cc(S(=O)(=O)O)c5cccc(S(=O)(=O)O)c5c4)cc3)cc2)cc2c(S(=O)(=O)O)cccc12	MOLT-4	syncytia	IIIB	-	-	37 µM
c1cc(CN2CCCNCCNCCCNCC2)ccc1CN1CCCNCCNCCCNCC1	MT-4	cytopathic effect / MTT	NL4-3	-	-	0.004 µg/mL
CC(C)(C)[Si](C)(C)OCC1OC(n2nncc2C(=O)N2CCC2)C(O[Si](C)(C)C(C)(C)C)C12OS(=O)(=O)C=C2N	CEM	cytopathic effect	IIIB	-	-	0.08 µM
CCCC(C)(C)[Si](C)(C)OC[C@H]1O[C@@H](n2cc(C)c(=O)n(CC(=O)O)c2=O)[C@H](O[Si](C)(C)C(C)(C)CCC)[C@@H]1O	MT-4	cytopathic effect / trypan blue	IIIB	-	-	>10 µM
Cn1cc(N)cc1C(=O)Nc1cc(C(=O)Nc2ccc3cc(S(=O)(=O)O)cc(S(=O)(=O)O)c3c2)n(C)c1	CEM + CEM-SS	cytopathic effect / XTT	G691-2	-	-	3.6 µM
Cc1ccc(NC(=S)N[C@H](C)c2cccc3ccccc23)nc1	PBMC	p24	NNRTI-resistant (RT Y181C) A17	-	RT-Y181C	0.066 µM
CC(C)c1nc(CN(C)C(=O)N[C@H](C(=O)N[C@@H](Cc2ccccc2)C[C@H](O)[C@H](Cc2ccccc2)NC(=O)OCc2cncs2)C(C)C)cs1	PBMC	p24	Ba-L Laboratory isolate	-	-	0.038 µM
CCCCCCCCCCCCOCC(COP(=O)([O-])OCC[N+](C)(C)C)OCCCCCCCCCC	CEM	syncytia	IIIB	-	-	0.64 µM
C=C(C)[C@]12C[C@@H](C)[C@@]34OC(c5ccccc5)(O[C@@H]1[C@@H]3[C@@H]1O[C@]1(CO)[C@@H](O)[C@@]1(O)[C@H]4C[C@H](C)[C@@H]1OC(=O)c1ccccc1)O2	C8166	syncytia / visual reading	IIIB	-	-	6.8 µM
Cc1cn([C@H]2C[C@H](N=[N+]=[N-])[C@@H](CO)O2)c(=O)[nH]c1=O	CEM + CEM-SS	cytopathic effect / XTT	IIIB	-	-	1.82 µM
Cc1ccc(NC(=S)NC[C@H](C)c2ccccc2)nc1	PBMC	p24	NNRTI-resistant (RT Y181C) A17	-	RT-Y181C	1.08 µM
Cc1cn([C@H]2C[C@H](F)[C@@H](CO)O2)c(=O)[nH]c1=O	PBMC	antigen	A(RT-Q151M)	-	RT-Q151M	0.0027 µM
Nc1nc(N)c2ncn([C@H]3CC[C@@H](CO)O3)c2n1	MT-4	cytopathic effect / trypan blue	IIIB	-	-	3.8 µM
Nc1ccn([C@@]23C[C@@H]2[C@@H](CO)CO3)c(=O)n1	HOS	luciferase	-	-	-	440 µM
C=C(C)[C@]1(O)C[C@@H](C)[C@@]2(O)[C@H]([C@H]1OC(=O)c1ccccc1)[C@@H]1O[C@]1(CO)[C@@H](O)[C@]1(O)C(=O)C(C)=C[C@H]12	C8166	syncytia / visual reading	IIIB	-	-	3.29 µM
C[C@H](CNC(=S)Nc1ccc(Cl)cn1)c1ccccc1	PBMC	p24	IIIB	-	-	0.038 µM
Cc1cn([C@@H]2O[C@H](CO)C=C2F)c(=O)nc1N	PBMC	RT activity	LAV	-	-	>100 µM
C[C@H](CNC(=S)Nc1ccc(Br)cn1)c1ccccc1	PBMC	p24	NNRTI-resistant (RT Y181C K103N) A17V	-	RT-Y181C K103N	1.23 µM
CCCCCCCCCCCCOC(CNC(=O)CCCCCCCCCCC)COP(=O)([O-])OCC[N+](C)(C)C	CEM	syncytia	IIIB	-	-	0.47 µM
Cc1cn([C@@H]2O[C@H](CO[Si](C)(C)C(C)(C)C)[C@@H](O)[C@H]2O[Si](C)(C)C(C)(C)C)c(=O)n(CC(=O)O)c1=O	MT-4	cytopathic effect / trypan blue	IIIB	-	-	5.3 µM
CC(C)CN(C[C@@H](O)[C@H](Cc1ccccc1)NC(=O)O[C@H]1CCOC1)S(=O)(=O)c1ccc(N)cc1	PBMC	p24	Ba-L Laboratory isolate	-	-	0.023 µM
C=C(C)[C@@]12OC3(/C=C/C=C/CCCCC)O[C@@H]1[C@@H]1[C@@H]4O[C@]4(CO)[C@@H](O)[C@]4(O)C(=O)C(C)=C[C@H]4[C@@]1(O3)[C@H](C)[C@H]2OC(=O)CC	C8166	syncytia / visual reading	IIIB	-	-	8.62 µM
CC(C)=CCN1Cc2cc(Cl)cc3[nH]c(=S)n(c23)C[C@@H]1C	HT4 + HT4 LacZ-1	plaque count	HXB2	-	RT-Y181C	4.5 µM
CC(C)(C)NC(=O)[C@@H]1C[C@@H]2CCCC[C@@H]2CN1C[C@@H](O)[C@H](Cc1ccccc1)NC(=O)[C@H](CC(N)=O)NC(=O)c1ccc2ccccc2n1	C8166	p24	RF	-	-	0.0007 µM
Cc1c(O)cccc1C(=O)N[C@@H](CSc1ccccc1)[C@H](O)CN1C[C@H]2CCCC[C@H]2C[C@H]1C(=O)NC(C)(C)C	PBMC	p24	Clinical isolate	-	PR-L10R N37D M46I I62V L63P A71V G73S V77I V82T L90M I93L	>1 µM
Cc1cn([C@@H]2O[C@H](CO[Si](C)(C)C(C)(C)C)C3(OS(=O)(=O)C=C3N)[C@H]2O[Si](C)(C)C(C)(C)C)c(=O)n(C)c1=O	CEM	-	IIIB	-	-	0.03 µM
CC(=O)SCCOP(=O)(OCCSC(C)=O)OC[C@@H]1CC[C@H](n2cnc3c(N)ncnc32)O1	PBMC	-	-	-	-	0.00023 µM
COc1ccc2c(c1)N(C(=O)OC(C)C)[C@@H](CSC)C(=S)N2	CEM	-	IIIB	-	-	0.003 µM
Cc1cn([C@H]2C[C@H](N=[N+]=[N-])[C@@H](CO)O2)c(=O)[nH]c1=O	C8166	syncytia / visual reading	IIIB	-	-	0.02108 µM
CCc1cc(NCc2nc3c(Cl)ccc(Cl)c3o2)c(=O)[nH]c1C	CEM	-	IIIB	-	-	0.0143 µM
N#Cc1cn([C@H]2C=C[C@@H](CO)O2)c2ncnc(N)c12	MT-4	cytopathic effect / trypan blue	IIIB	-	-	14 µM
CCCN(C)C(=O)Oc1nsnc1-c1c(Cl)cccc1Cl	MT-4	cytopathic effect	HE	clinical isolate	-	0.035 µM
Fc1cccc(F)c1C1SCc2nc3ccccc3n21	CEM	cytopathic effect	-	-	RT-Y188H	4.16 µM
CC(C)c1nc(COC(N)=O)n(Cc2ccncc2)c1S(=O)(=O)c1cc(Cl)cc(Cl)c1	MT-4	cytopathic effect / MTT	-	-	-	0.5 µg/mL
CC(C)(C)[Si](C)(C)OC[C@@H]1CC[C@H](n2cnc3c(=O)n(CC(=O)OCc4ccccc4)cnc32)O1	MT-4	cytopathic effect / trypan blue	IIIB	-	-	>10 µM
CN(C)C(=O)c1cnnn1[C@@H]1O[C@H](CO[Si](C)(C)C(C)(C)C)C2(OS(=O)(=O)C=C2N)[C@H]1O[Si](C)(C)C(C)(C)C	CEM	cytopathic effect	IIIB	-	-	0.12 µM
Cc1cn([C@H]2C[C@H](N=[N+]=[N-])[C@@H](CO)O2)c(=O)[nH]c1=O	TZM-bl	luciferase	VB59	-	-	0.02 µM
Cc1cn([C@@H]2O[C@@H](CO)[C@H](N=[N+]=[N-])[C@@H]2O)c(=O)[nH]c1=O	MT-4	MTT / syncytia	IIIB	-	-	>1000 µM
C[C@H](CNC(=S)Nc1ccc(Cl)cn1)C1CCCCC1	PBMC	p24	IIIB	-	-	>1 µM
CCCCCCCCCCCCCCCCCC(=O)NCC(COP(=O)([O-])OCC[N+](C)(C)C)OCCCCCCCC	CEM	syncytia	IIIB	-	-	0.67 µM
Cc1csc(NC(=S)N[C@H](C)c2cccc3ccccc23)n1	PBMC	p24	NNRTI-resistant (RT Y181C) A17	-	RT-Y181C	0.145 µM
CCNC(=O)c1cnnn1C1OC(CO[Si](C)(C)C(C)(C)C)C2(OS(=O)(=O)C=C2N)C1O[Si](C)(C)C(C)(C)C	MT-4	cytopathic effect	IIIB	-	-	0.17 µM
O=S(=O)(O)OCC1OC2OC3C(COS(=O)(=O)O)OC(OC4C(COS(=O)(=O)O)OC(OC5C(COS(=O)(=O)O)OC(OC6C(COS(=O)(=O)O)OC(OC7C(COS(=O)(=O)O)OC(OC8C(COS(=O)(=O)O)OC(OC1C(OS(=O)(=O)O)C2OS(=O)(=O)O)C(OS(=O)(=O)O)C8OS(=O)(=O)O)C(OS(=O)(=O)O)C7OS(=O)(=O)O)C(OS(=O)(=O)O)C6OS(=O)(=O)O)C(OS(=O)(=O)O)C5OS(=O)(=O)O)C(OS(=O)(=O)O)C4OS(=O)(=O)O)C(OS(=O)(=O)O)C3OS(=O)(=O)O	MT-4	cytopathic effect / MTT	NL4-3	-	-	0.13 µg/mL
Cc1cn(C2C[C@H](N)[C@H](CO)O2)c(=O)[nH]c1=O	MT-4	MTT / syncytia	IIIB	-	-	>1000 µM
C[C@@H](CNC(=S)Nc1ccc(Br)cn1)c1ccccc1	PBMC	p24	NNRTI-resistant (RT Y181C K103N) A17V	-	RT-Y181C K103N	1.08 µM
CCCCCCCCCCOC(CNC(=O)CCCCCCCCC)COP(=O)([O-])OCC[N+](C)(C)C	CEM	syncytia	G-691 POST-AZT	-	-	0.15 µM
Cc1cn([C@H]2C[C@H](N=[N+]=[N-])[C@@H](CO[Si](C)(C)C(C)(C)C)O2)c(=O)n(CC(=O)O)c1=O	MT-4	cytopathic effect / trypan blue	IIIB	-	-	>50 µM
Cc1cn([C@H]2C[C@H](N=[N+]=[N-])[C@H](CO)O2)c(=O)[nH]c1=O	MT-4	MTT / syncytia	IIIB	-	-	>1000 µM
Fc1ccccc1CCNC(=S)Nc1ccc(Br)cn1	PBMC	p24	IIIB	-	-	0.001 µM
CC(C)(C)NC(=O)[C@@H]1CN(Cc2cccnc2)CCN1C[C@@H](O)C[C@@H](Cc1ccccc1)C(=O)N[C@H]1c2ccccc2C[C@H]1O	PBMC	p24	Clinical isolate	-	PR-L10I I15V K20R M36I M46L I54V K55R I62V L63P K70Q V82A L89M	0.49 µM
Cc1cn([C@@H]2O[C@H](CO[Si](C)(C)C(C)(C)C)[C@@H](O)[C@H]2O[Si](C)(C)C(C)(C)C)c(=O)n(CCO)c1=O	CEM	syncytia	IIIB	-	-	>50 µM
CCN(C)C(=O)Oc1nsnc1-c1c(Cl)cccc1Cl	MT-4	cytopathic effect	IIIB	-	-	0.0367 µM
CSC[C@H](NC(=O)COc1cccc2cnccc12)C(=O)N[C@@H](Cc1ccccc1)[C@H](O)C(=O)N1CSC(C)(C)[C@H]1C(=O)NC(C)(C)C	PBMC(PHA STIM.) + PBMC	p24	AZT-insensitive	-	-	0.01 µM
COc1ccccc1CN[C@H]1C2CCN(CC2)[C@H]1C(c1ccccc1)c1ccccc1	Macrophage + Monocytes/macrophages	RT activity	89.6 R5X4 isolate	-	-	>0.1 µM
CCCCCCCCCCCCOC(CNC(=O)CCCCCCCCC)COP(=O)([O-])OCC[N+](C)(C)C	CEM	syncytia	IIIB	-	-	0.1 µM
CCCCCCCCCCCCCCCC(=O)Nc1cc(S(=O)(=O)O)cc2cc(S(=O)(=O)O)cc(O)c12	MOLT-4	syncytia	IIIB	-	-	53 µM
Nc1nc(=O)n([C@@H]2CS[C@H](CO)O2)cc1F	PBMC	RT activity	XXBRU PITT	-	-	0.0046 µM
CCN(C)C(=O)c1cnnn1C1OC(CO[Si](C)(C)C(C)(C)C)C2(OS(=O)(=O)C=C2N)C1O[Si](C)(C)C(C)(C)C	MT-4	cytopathic effect	IIIB	-	-	0.72 µM
Nc1ncnc2c1ncn2[C@H]1C[C@@H](F)[C@@H](CO)O1	MT-4	cytopathic effect / trypan blue	IIIB	-	-	271 µM
C=C(C)[C@@]1(OC(C)=O)[C@H](OC(C)=O)[C@@H]2[C@H](OC(C)=O)[C@@]3(C)O[C@@]4([C@@H]3O)[C@@H](OC(=O)c3ccccc3)[C@@H](C)C[C@H]4[C@@]2(O)[C@H](C)[C@@H]1OC(=O)c1ccccc1	C8166	syncytia / visual reading	IIIB	-	-	0.215 µM
Nc1ccn([C@@H]2CO[C@H](CO)S2)c(=O)n1	C8166	p24	RF	-	Saquinavir-resistant (PR G48V L90M)	6.5 µM
C=C(C)[C@@]1(O)[C@H](O)[C@@H]2[C@@H]3O[C@]3(CO)[C@@H](O)[C@]3(O)C(=O)C(C)=C[C@H]3[C@@]2(O)[C@H](C)[C@H]1OC(C)=O	C8166	syncytia / visual reading	IIIB	-	-	2.46 µM
Cc1cn([C@H]2C[C@H](N=[N+]=[N-])[C@@H](CO)O2)c(=O)[nH]c1=O	CEM	-	IIIB	-	-	0.008 µM
CO[P@](=O)(c1cc(C)cc(/C=C/C#N)c1)c1c(C(N)=O)[nH]c2ccc(Cl)c(F)c12	MT-4	ELISA	NL4-3	-	K103N/Y181C	0.0028 µM
C[C@@H](NC(=S)Nc1ccc(Br)cn1)c1cccc2ccccc12	PBMC	p24	NNRTI-resistant (RT Y181C) A17	-	RT-Y181C	0.105 µM

Conditions beyond the fields shown may differ between rows. ECn is the concentration giving n% inhibition of infection, replication or growth.